The text below walks through data of PMC3006222, “Cholera Toxin B Subunits Assemble into Pentamers - Proposition of a Fly-Casting Mechanism” (2010).

Experiment [1] has as its target Cholera toxin B subunit (CtxB) (UniProt P01556). Particulars: cited from earlier work.
The target is the same in experiment [2]. The following applies: cited from earlier work. This is another data set of the same source.
Experiment [3] shares this target.
Experiment [4] shares this target. This is another data set of the same source.

Take Cholera toxin B subunit (CtxB): the “association rate (kon) of CtxB subunits” value in experiment [1] was 3000 M⁻¹ s⁻¹. Also, the threshold pH for acid disassembly of the pentamer in experiment [2] is 3.7 pH. The “mid-point pH of reassembly yield (GM1-binding oligomers, 8.6 uM, 30 min)” value in experiment [3] was “inflexion point around pH 6.0; yield increases sigmoidally with increasing pH”. Moreover, in experiment [4], the half-time of reassembly (Trp-88 fluorescence increase) against pH worked out at 6 pH; the “mid-point pH of reassembly yield (GM1-binding oligomers, 35 uM, 30 min)” value is given as “mid-point pH of about 5.2 at 35 uM (against about 6.0 at 8.6 uM)”; the “yield of reassembly into GM1-binding species after 30 min at 8.6 uM” value is “only 45%”; the “yield of reassembly into GM1-binding species after 30 min at 35 uM” value is “about 75%”.
